Assay results taken from paper PMC10907753 (Communications Biology, 2024).

Protein sequences, listed by entry. Tags and fused reporters are not part of them.
UniProt A0A0H2X5R2, whole entry H175F/I224F/V291F/I332F: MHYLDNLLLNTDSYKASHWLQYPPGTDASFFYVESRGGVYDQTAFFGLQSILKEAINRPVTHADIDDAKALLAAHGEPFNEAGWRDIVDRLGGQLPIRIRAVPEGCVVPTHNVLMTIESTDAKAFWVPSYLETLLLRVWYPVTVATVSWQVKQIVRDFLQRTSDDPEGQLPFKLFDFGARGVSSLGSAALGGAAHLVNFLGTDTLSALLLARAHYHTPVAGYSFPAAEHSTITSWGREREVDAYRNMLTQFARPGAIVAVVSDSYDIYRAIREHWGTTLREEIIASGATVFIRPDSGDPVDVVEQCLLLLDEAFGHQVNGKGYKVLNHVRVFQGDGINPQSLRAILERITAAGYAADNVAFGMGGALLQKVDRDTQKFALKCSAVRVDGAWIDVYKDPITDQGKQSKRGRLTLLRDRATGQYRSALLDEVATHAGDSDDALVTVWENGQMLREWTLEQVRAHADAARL

Legend:
[1] = target: T1, Xcc NAMPT quadruple mutant (Xanthomonas campestris pv. campestris, UniProt A0A0H2X5R2, H175F/I224F/I332F/V291F); test: Isothermal titration calorimetry (ITC)
[2] = target: T1, Xcc NAMPT quadruple mutant; test: Determination of IC50 value for FK866

## O=C(/C=C/c1cccnc1)NCCCCC1CCN(C(=O)c2ccccc2)CC1 [FK866]
[1]; ITC, 1 mM FK866 into 50 μM mutant, one set of sites model
  Kd: 6.47 µM
[1]; quadruple mutant vs wild-type
  Kd fold greater than wild-type: about 78 fold
[2]; 3.5 nM enzyme, 15 μM NAM, 50 μM PRPP, 2.5 mM ATP
  IC50: 0.154 µM
[2]; quadruple mutant vs wild-type
  IC50 fold higher than that of the wild-type enzyme: more than 600 fold
